# From patent US20240122867A1, “CORONAL PROTEIN-COATED NANOPARTICLES AND USES THEREOF” (UNIVERSITY OF CENTRAL FLORIDA RESEARCH FOUNDATION, INC., priority 2021, published 2024)
# System: coronal proteins on NPs
# Design: species or system mouse
# Settings: for V5 Sera_Nanoparticles Quantitative Value (Normalized Total Spectra): HBPE-NPs incubated 1 h with IAV day 5 (V5) mouse sera, 20:1 NP:sera, centrifuged and washed; for V5 Sera Alone (Control) Quantitative Value (Normalized Total Spectra): IAV day 5 (V5) mouse sera alone, no NPs (sera-only control)
molecule,measurement,value
"Band 3 anion transport protein (protein, UniProt P04919 1-929, looked up) Band 3 anion transport protein: MGDMRDHEEVLEIPDRDSEEELENIIGQIAYRDLTIPVTEMQDPEALPTEQTATDYVPSSTSTPHPSSGQVYVELQELMMDQRNQELQWVEAAHWIGLEENLREDGVWGRPHLSYLTFWSLLELQKVFSKGTFLLGLAETSLAGVANHLLDCFIYEDQIRPQDREELLRALLLKRSHAEDLGNLEGVKPAVLTRSGGASEPLLPHQPSLETQLYCGQAEGGSEGPSTSGTLKIPPDSETTLVLVGRANFLEKPVLGFVRLKEAVPLEDLVLPEPVGFLLVLLGPEAPHVDYTQLGRAAATLMTERVFRITASMAHNREELLRSLESFLDCSLVLPPTDAPSEKALLNLVPVQKELLRRRYLPSPAKPDPNLYNTLDLNGGKGGPGDEDDPLRRTGRIFGGLIRDIRRRYPYYLSDITDALSPQVLAAVIFIYFAALSPAVTFGGLLGEKTRNLMGVSELLISTAVQGILFALLGAQPLLVLGFSGPLLVFEEAFFSFCESNNLEYIVGRAWIGFWLILLVMLVVAFEGSFLVQYISRYTQEIFSFLISLIFIYETFSKLIKIFQDYPLQQTYAPVVMKPKPQGPVPNTALFSLVLMAGTFLLAMTLRKFKNSTYFPGKLRRVIGDFGVPISILIMVLVDSFIKGTYTQKLSVPDGLKVSNSSARGWVIHPLGLYRLFPTWMMFASVLPALLVFILIFLESQITTLIVSKPERKMIKGSGFHLDLLLVVGMGGVAALFGMPWLSATTVRSVTHANALTVMGKASGPGAAAQIQEVKEQRISGLLVSVLVGLSILMEPILSRIPLAVLFGIFLYMGVTSLSGIQLFDRILLLFKPPKYHPDVPFVKRVKTWRMHLFTGIQIICLAVLWVVKSTPASLALPFVLILTVPLRRLILPLIFRELELQCLDGDDAKVTFDEENGLDEYDEVPMPV",V5 Sera_Nanoparticles Quantitative Value (Normalized Total Spectra),13.055
same,V5 Sera Alone (Control) Quantitative Value (Normalized Total Spectra),2.7757
"Vitronectin (protein, UniProt P29788 20-478, looked up) Vitronectin: DQESCKGRCTQGFMASKKCQCDELCTYYQSCCADYMEQCKPQVTRGDVFTMPEDDYWSYDYVEEPKNNTNTGVQPENTSPPGDLNPRTDGTLKPTAFLDPEEQPSTPAPKVEQQEEILRPDTTDQGTPEFPEEELCSGKPFDAFTDLKNGSLFAFRGQYCYELDETAVRPGYPKLIQDVWGIEGPIDAAFTRINCQGKTYLFKGSQYWRFEDGVLDPGYPRNISEGFSGIPDNVDAAFALPAHRYSGRERVYFFKGKQYWEYEFQQQPSQEECEGSSLSAVFEHFALLQRDSWENIFELLFWGRSSDGAREPQFISRNWHGVPGKVDAAMAGRIYVTGSLSHSAQAKKQKSKRRSRKRYRSRRGRGHRRSQSSNSRRSSRSIWFSLFSSEESGLGTYNNYDYDMDWLVPATCEPIQSVYFFSGDKYYRVNLRTRRVDSVNPPYPRSIAQYWLGCPTSEK",V5 Sera_Nanoparticles Quantitative Value (Normalized Total Spectra),15.231
same,V5 Sera Alone (Control) Quantitative Value (Normalized Total Spectra),59.215
"Inter-alpha-trypsin inhibitor heavy chain H3 (protein, UniProt Q61704 34-649, looked up) Inter-alpha-trypsin inhibitor …: SLPEGVVDGIEVYSTKISCKVTSRFAHNVVTTRAVNRADTAKEVSFDVELPKTAFITNFTLTIDGVTYPGNVKEKEVAQKQYEKAVSQGKTAGLVKASGRKLEKFTVSVNVAAGSKVTFELTYEELLKRNKGKYEMYLKVQPKQLVRHFEIDAHIFEPQGISMLDAEASFITNDLLGSALTKSFSGKKGHVSFKPSLDQQRSCPTCTDSLLNGDFTIVYDVNRESPGNVQIVNGYFVHFFAPQGLPVVPKNIVFVIDVSGSMSGRKIQQTREALLKILDDVKEDDYLNFILFSTDVTTWKDHLVQATPANLKEAKTFVKNIHDQSMTNINDGLLKGIEMLNKAREDHTVPERSTSIIIMLTDGDANTGESRPEKIQENVRNAIGGKFPLYNLGFGNNLNYNFLETLALENHGLARRIYEDSDANLQLQGFYEEVANPLLTNVEVEYPENAILDLTRNSYPHFYDGSEIVVAGRLVDRNMDNFKADVKGHGALNDLTFTEEVDMEEMDAALKEQGYIFGDYIERLWAYLTIEQLLEKRKNAKGDEKENITAEALDLSLKYHFVTPLTSMVVTKPEDNEDQTSIADKPGEEAIAETTTMSFLTTQQSSQSPYYYVDGD",V5 Sera_Nanoparticles Quantitative Value (Normalized Total Spectra),16.319
same,V5 Sera Alone (Control) Quantitative Value (Normalized Total Spectra),11.103
"Immunoglobulin heavy constant mu (protein, UniProt P01872 1-454, looked up) Immunoglobulin heavy constant …: SQSFPNVFPLVSCESPLSDKNLVAMGCLARDFLPSTISFTWNYQNNTEVIQGIRTFPTLRTGGKYLATSQVLLSPKSILEGSDEYLVCKIHYGGKNRDLHVPIPAVAEMNPNVNVFVPPRDGFSGPAPRKSKLICEATNFTPKPITVSWLKDGKLVESGFTTDPVTIENKGSTPQTYKVISTLTISEIDWLNLNVYTCRVDHRGLTFLKNVSSTCAASPSTDILTFTIPPSFADIFLSKSANLTCLVSNLATYETLNISWASQSGEPLETKIKIMESHPNGTFSAKGVASVCVEDWNNRKEFVCTVTHRDLPSPQKKFISKPNEVHKHPPAVYLLPPAREQLNLRESATVTCLVKGFSPADISVQWLQRGQLLPQEKYVTSAPMPEPGAPGFYFTHSILTVTEEEWNSGETYTCVVGHEALPHLVTERTVDKSTGKPTLYNVSLIMSDTGGTCY",V5 Sera_Nanoparticles Quantitative Value (Normalized Total Spectra),11.967
same,V5 Sera Alone (Control) Quantitative Value (Normalized Total Spectra),23.131
"Apolipoprotein A-I (protein, UniProt Q00623 25-264, looked up) Apolipoprotein A-I: DEPQSQWDKVKDFANVYVDAVKDSGRDYVSQFESSSLGQQLNLNLLENWDTLGSTVSQLQERLGPLTRDFWDNLEKETDWVRQEMNKDLEEVKQKVQPYLDEFQKKWKEDVELYRQKVAPLGAELQESARQKLQELQGRLSPVAEEFRDRMRTHVDSLRTQLAPHSEQMRESLAQRLAELKSNPTLNEYHTRAKTHLKTLGEKARPALEDLRHSLMPMLETLKTQVQSVIDKASETLTAQ",V5 Sera_Nanoparticles Quantitative Value (Normalized Total Spectra),102.26
same,V5 Sera Alone (Control) Quantitative Value (Normalized Total Spectra),112.88
"Cluster of Keratin, type II cytoskeletal 2 epidermal (protein, UniProt Q3TTY5 1-707, looked up) Keratin, type II cytoskeletal …: MSCQISCRSRRGGGGGGGGGFRGFSSGSAVVSGGSRRSNTSFSCISRHGGGRGGSGGGGFGSQSLVGLGGYKSISSSVAGNSGGYGGSSFGGSSGFGGGRGFGGGQGFGGSGGFGGGSGFGGGQGFGGGSRFGGGSGFGGGGFGGGSFGGGRFGGGPGGFGGPGGFPGGGIHEVSVNQSLLQPLDVKVDPEIQNVKSQEREQIKTLNNKFASFIDKVRFLEQQNQVLRTKWELLQQLDVGSRTTNLDPIFQAYIGMLKKQVDRLSAERTSQESELNNMQDLVEDFKKKYEDEINKRTSAENDFVTIKKDVDSCYMDKTELQARLDILAQEVNFLRTLYDAELSQLQQDVTDTNVILSMDNNRNLDLDSIIAEVQNQYEMIAHKSKAESEELYHSKYEELQVTAVKHGDSLKEIKMEISELNRTIQRLQGEISHVKKQCKGVQDSIADAEQRGEHAIKDARGKLTDLEEALQQCREDLARLLRDYQELMNTKLSLDVEIATYRKLLEGEECRMSGDFSDNVSVSITSSTISSSVASKTGFGSGGQSSGGRGSYGGRGGGGGGGSTYGSGGRSSGSRGSGSGSGGGGYSSGGGSRGGSGGGYGSGGGSRGGSGGGYGSGGGSGSGGGYSSGGGSRGGSGGGGVSSGGGSRGGSSSGGGSRGGSSSGGGGYSSGGGSRGGSSSGGAGSSSEKGGSGSGEGCGSGVTFSFR",V5 Sera_Nanoparticles Quantitative Value (Normalized Total Spectra),13.055
same,V5 Sera Alone (Control) Quantitative Value (Normalized Total Spectra),36.084
"Inter-alpha-trypsin inhibitor heavy chain H1 (protein, UniProt Q61702 32-668, looked up) Inter-alpha-trypsin inhibitor …: PRGSEKRHAVDTSVNGVSIKSLKVNCKVTSRFAHYVITSQVVNNADKAREVAFDVEIPKTAFISDFAITSDGKAFIGDIKDKVTAWKQYRKAAVLGESAGLVRASGRNMEQFTIHITVGAQSKATFRLTYEEVLKRRLMQYDITIKVRPKQLVQHFEIDVDIFEPQGISKLDAQASFLSEELAAQTIKKSFSGKKGHVLFRPTVSQQQSCPTCSTSLLNGEFKVTYDVNRDKLCDLLVANNYFTHFFAPKNLTNMSKNLVFVIDISGSMEGQKVRQTKEALLKILEDMRPVDNFDLVLFGSKVQSWKGSLVPASNANLQAAQDFVRRFSLAGATNLNGGLLRGIEILNKAQGSHPELSSPASILIMLTDGEPTEGETDRSQILKNVRNAIRGRFPLYNLGFGHDLDFSFLEVMSTENNGWAQRIYEDHDATQQLQGFYNQVANPLLTDVELQYPQDAVLALTQHRHKQYYDGSEIVVAGRIANHKLNTFKADVRARGEKQEFRATCLVDEEEMKKLLRERGHVLENHVERLWAYLTIQELLAKRMKTEGEERANLSSQVLKMSLDYHFVTPLTSLTIRGLTDEDGLEPTIDKPLEDSQPLEMVGPRRTFVLSAIQPSPTAHPIDSKLPLRVTGVDTD",V5 Sera_Nanoparticles Quantitative Value (Normalized Total Spectra),10.879
same,V5 Sera Alone (Control) Quantitative Value (Normalized Total Spectra),12.953
"Clusterin (protein, UniProt Q06890 22-448, looked up) Clusterin: EQEVSDNELQELSTQGSRYINKEIQNAVQGVKHIKTLIEKTNAERKSLLNSLEEAKKKKEDALEDTRDSEMKLKAFPEVCNETMMALWEECKPCLKHTCMKFYARVCRSGSGLVGQQLEEFLNQSSPFYFWMNGDRIDSLLESDRQQSQVLDAMQDSFARASGIIDTLFQDRFFARELHDPHYFSPIGFPHKRPHFLYPKSRLVRSLMSPSHYGPPSFHNMFQPFFEMIHQAQQAMDVQLHSPAFQFPDVDFLREGEDDRTVCKEIRRNSTGCLKMKGQCEKCQEILSVDCSTNNPAQANLRQELNDSLQVAERLTEQYKELLQSFQSKMLNTSSLLEQLNDQFNWVSQLANLTQGEDKYYLRVSTVTTHSSDSEVPSRVTEVVVKLFDSDPITVVLPEEVSKDNPKFMDTVAEKALQEYRRKSRAE",V5 Sera_Nanoparticles Quantitative Value (Normalized Total Spectra),15.231
same,V5 Sera Alone (Control) Quantitative Value (Normalized Total Spectra),37.934
"Phosphatidylinositol-glycan-specific phospholipase D (protein, UniProt O70362 24-837, looked up) Phosphatidylinositol-glycan-sp …: CGLSTHVEIGHRALEFLRLQDGRINYKELILEHQDAYQAGTVFPDAFYPSICKRGKYHDVSERTHWTPFLNASIHYIRENYPLPWEKDTEKLVAFLFGITSHMVADLSWHNLGFLRTMGAIDFYNSYSDAHSAGDFGGDVLSQFEFNFNYLSRRWYVPVRDLLRIYDNLYGRKVITKDVLVDCTYLQFLEMHGEMFAVSKLYSTYSTKSPFLVEQFQDYFLGGLDDMAFWSTNIYRLTSFMLENGTSDCNLPENPLFISCDGRNHTLSGSKVQKNDFHRNLTMFISRDIRKNLNYTERGVFYSTGSWARPESVTFMYQTLERNLRLMLAGSSQKNLNHVSSPSASYTLSVPYARLGWVMTSADLNQDGHGDLVVGAPGYSHPGRFQIGRVYIIYGNDLGLPPIDLDLNKEGILEGFQPSGRFGSALAVLDFNQDGLPDLAVGAPSVGSGQLTYNGSVYVYYGSQQGRLSSSPNVTISCKDTYCNLGWTLLATDADGDGRHDLVISSPFAPGGRKQKGIVATFYSHPRRNDKELLTLEEADWKVNGEEDFSWFGYSLHGVTVANRSLLLIGSPTWKNVSRMARSSHKKNQEEKSLGKVYGYFLPNRQSTITISGDKAMGKLGTSLSSGYVRVNGTLTQVLLVGAPTHDDVSKMAFLTMTLHQGGATRMYELAPEKTQPALLSTFSGDRRFSRFGSVLHLTDLDDDGLDEIIMAAPLRITDVTSGLLGGEDGRVYIYNGMYTTLGDMTGKCKSWMTPCPEEKAQYVLTSPEASSRFGSSLVSVRSKGRNQVVVAAGRSSWGARLSGALHVYSFSSD",V5 Sera_Nanoparticles Quantitative Value (Normalized Total Spectra),15.231
same,V5 Sera Alone (Control) Quantitative Value (Normalized Total Spectra),25.906
